Key:
[1] = target: full-length gp120 from the A subtype 92UG031 HIV-1 isolate (HIV-1 (A subtype, isolate 92UG031)); assay: ITC
[2] = target: gp120-A prebound to 17b (HIV-1 (A subtype, isolate 92UG031)); assay: ITC

Q: “Soluble D1-D2-D3-D4 CD4 (from UniProt P01730 26-396) (domain or fragment)” was tested. Which Kd [1] did it give?
A: The Kd was 108 nM.

Q: And the dH [1]?
A: Its dH is -31.3 kcal/mol.

Q: And the dH [2]?
A: Its dH is -21.7 kcal/mol.

Reference: article PMC2840190
